Key:
[1] = test system: multidrug-resistant Dd2 strain of Plasmodium falciparum (PfDd2); experiment: Antiplasmodial SYBR Green I fluorescence assay, PfDd2 strain; type: cell-based; settings: SI = CC50 (RAW)/IC50 (PfDd2)
Protocol: (§1) The parasite strains used in this study are continuously cultured at the Antimicrobial and Biocontrol Agents Unit of the University of Yaoundé I, and were graciously provided by BEI Resources (https://www.beiresources.org (accessed on 16 February 2019)). […]
(§2) The antiplasmodial efficacy of the samples was evaluated using the SYBR Green I-based fluorescence assay, as previously reported by Smilkstein et al., on a sorbitol-synchronized ring stage culture of Plasmodium falciparum (PfDd2 and Pf3D7 strains). The test relies on the development of intense fluorescence following SYBR green binding to the exposed DNA found in wells containing healthy cells. […] Fluorescence measurements were taken using an Infinite M200 microplate reader (Tecan, MT, USA) at emission and excitation wavelengths of 538 and 485 nm, respectively.
(§3) The resulting fluorescence readings were used to calculate the growth inhibition percentages relative to the negative control for each sample and for each of the tested doses. […] The resistance index (RI) for antiplasmodial tests was calculated as the ratio between the samples’ IC50 values for the chloroquine-sensitive strain 3D7 and the multiresistant strain Dd2 [69]. […] Based on each inhibitor’s antiparasitic efficacy (IC50) and cell toxicity (CC50), selectivity indices (SI) were calculated [SI = CC50 (RAW)/IC50 (Parasites)]. […]

[2] = test system: chloroquine-sensitive 3D7 strain of Plasmodium falciparum (Pf3D7); experiment: Antiplasmodial SYBR Green I fluorescence assay, Pf3D7 strain; type: cell-based; settings: SI = CC50 (RAW)/IC50 (Pf3D7)
Protocol: as §1, §2, §3

CC1(C)CC[C@]2(C(=O)O)CC[C@]3(C)C(=CCC4[C@@]5(C)C[C@@H](O)[C@H](O)C(CO)(CO)C5CC[C@]43C)C2[C@@H]1O (stereo partly drawn) [Bellericagenin B (2), bellericagenin B]
SI_PfDd2 [1]: >11.75 | SI_Pf3D7 [2]: >3.81

COC(=O)[C@H](O)[C@@H]1[C@@]2(C)[C@H]3CC[C@@]4(C)[C@H](c5ccoc5)OC(=O)C[C@@]45O[C@H]4C(=O)[C@@]1(C)C[C@]2(OC(C)=O)[C@@H]4[C@@]35O [Khayanolide E (6), khayanolide E]
SI_Pf3D7 [2]: 1.43

— PMC10609173, “Antiplasmodial and Antileishmanial Activities of a New Limonoid and Other Constituents from the Stem Bark of Khaya senegalensis” (Molecules, 2023)
